The target in the test is T1, Tau fibrils (isoform h2N4RTau) (Homo sapiens, UniProt P10636).
T1 construct: made in house; host or cells: Escherichia coli BL21(DE3), pET11d vector
Put plainly: Inhibition of thioflavin T binding to Tau fibrils (fluorescence competition), Ki determination. To be noted: read-out: KdThT for Tau fibrils. As for the experimental part:
The modification of R2 on the phenyl ring in the C-4 position led to an improvement in the affinity towards α-syn fibrils (33, 34, 35, 37, and 39) but not in the C-3 position (36). As the final aim was to obtain a [^18F]-labeled tracer, we prepared compound 40 and observed that it was not a good candidate because of a rather good affinity for Aβ and tau fibrils (around 10–20 nM), but not for α-syn (>100 nM).
Wild-type α-syn and Aβ1-42 were expressed in the Escherichia coli strain BL21(DE3) (Stratagene, La Jolla, CA, USA) and purified as described. The α-syn concentration was determined by measuring the absorbance at 280 nm using the extinction coefficient 5960 M^−1 cm^−1. For the Aβ1-42 peptide, the concentration was determined by a fluorometric method using the reactive compound fluorescamine (Sigma, San Jose, CA, USA) that reacts with primary amino groups to form a fluorescent product. […] The concentration of purified Tau was determined by measuring the absorbance at 280 nm using the extinction coefficient 7575 M^−1 cm^−1.
For assembly into fibrils, α-syn was incubated in 50 mM Tris-HCl, pH 7.5, 150 mM KCl at 37 °C under continuous shaking for 4 days. […] The images were recorded with a Gatan Orius CCD camera (Gatan, Pleasanton, CA, USA). […]

Each structure is given as a SMILES string.

On to `Cc1ccc2c(c1)sc(-c1ccc(N(C)C)cc1)[n+]2C` [ThT, thioflavin T, reference compound], for which the Kd came to 350 nM.
